In PubChem BioAssay AID489010 (Southern Research Specialized Biocontainment Screening …, 2010):

Tested on: M. tuberculosis H37Rv growth inhibition
Assay: M. tuberculosis H37Rv growth inhibition, dose response, strain H37Rv (AID 489010)
Conditions: measured here: H37Rv growth IC50

With `CCc1nc2c(n1)c1c(non1O)c1c2no[n+]1[O-]` the IC50 was 11.5 µM.
